Tested on: Vero cells
Conditions: α-def-6 6 µM, 24 h, 48 h and 72 h, 37 °C; absorbance 490 nm; three biological replicates (n = 3)

CC[C@H](C)[C@@H]1NC(=O)CNC(=O)[C@H](CCSC)NC(=O)[C@H](C(C)C)NC(=O)[C@H]([C@@H](C)O)NC(=O)[C@@H]2CSSC[C@@H]3NC(=O)[C@H](Cc4c[nH]cn4)NC(=O)[C@@H](NC(=O)[C@@H](NC(=O)[C@H](Cc4ccccc4)NC(=O)[C@H](C)N)[C@@H](C)O)CSSC[C@@H](C(=O)N[C@@H](CC(C)C)C(=O)O)NC(=O)[C@H](CSSC[C@H](NC(=O)[C@H](CO)NC(=O)[C@H](CCCNC(=N)N)NC(=O)[C@H](CCCNC(=N)N)NC3=O)C(=O)N[C@@H](Cc3ccc(O)cc3)C(=O)N[C@@H](CO)C(=O)N[C@@H]([C@@H](C)O)C(=O)N[C@@H](CCC(=O)O)C(=O)N[C@@H](Cc3ccc(O)cc3)C(=O)N[C@@H](CO)C(=O)N[C@@H](Cc3ccc(O)cc3)C(=O)NCC(=O)N[C@@H]([C@@H](C)O)C(=O)N2)NC(=O)[C@H](Cc2ccccc2)NC(=O)[C@H](CCCNC(=N)N)NC(=O)[C@H](Cc2c[nH]cn2)NC(=O)[C@H](CC(N)=O)NC1=O [α-def-6]
effect on viability of cultured Vero cells: no effect on viability of cultured Vero cells

— PMC9101188, “Human α-Defensin-6 Neutralizes Clostridioides difficile Toxins TcdA and TcdB by Direct Binding” (International Journal of Molecular Sciences, 2022)
